Anti-infective test results gathered from many reports (values: NIAID ChemDB through PubChem).

All rows: host cell toxicity; cells: H9; method: MTT; read-out: CC50

CCn: concentration that lowers growth or viability of the cells by n%. Rows are shuffled and stem from different studies.

SMILES	value
CCOC(=O)c1cc(C(=O)c2ccc3ccccc3c2)n2ccc(C(=O)N[C@@H](CCSC)C(=O)OC)cc12	43.3 µM
CCOC(=O)c1cc(C(=O)c2ccc(N)cc2)n2ccc(C(=O)NCc3ccccn3)cc12	159.5 µM
COc1cc2c(c(O)c1OC)-c1c(cc(OC)c(OC)c1O)C[C@H](C)[C@H](C)C2	40.46 µM
CCOC(=O)c1cc(C(=O)c2ccccc2)n2ccc(C(=O)N[C@@H](C(=O)OC)c3ccccc3)cc12	229 µM
[N-]=[N+]=NCCOCCOCCOc1cc(C2(C(F)(F)F)N=N2)ccc1C(=O)NCCOCCOCCNC(=O)c1cc(C(=O)c2ccc3ccccc3c2)n2ccc(C(=O)c3ccccc3)cc12	168.5 µM
CC1=C(/C=C/C(C)=C\C=C\C(C)=C\C(=O)O)C(C)(C)CCC1	>1 µM
CCOC(=O)c1cc(C(=O)c2ccc(C(F)(F)F)cc2)n2ccc(C(=O)NCc3ccccn3)cc12	349.9 µM
O=C(/C=C/c1ccc(O)c2c1[C@H](C(=O)O)[C@@H](c1ccc(O)c(O)c1)O2)O[C@H](Cc1ccc(O)c(O)c1)C(=O)O	>297 µM
CCOC(=O)c1cc(C(=O)c2ccccc2)n2ccc(C(=O)N[C@@H](Cc3c[nH]c4ccccc34)C(=O)OC)cc12	139 µM
NCCOCCOCCNC(=O)c1cc(C(=O)c2ccc3ccccc3c2)n2ccc(C(=O)c3ccccc3)cc12	13.6 µM
O=C(OCCOCCOCCNC(=O)c1cc(C(=O)c2ccc3ccccc3c2)n2ccc(C(=O)c3ccccc3)cc12)c1ccccc1	125.4 µM
O=C(OCCOCCOCCNC(=O)c1cc(C(=O)c2ccc3ccccc3c2)n2ccc(C(=O)c3ccccc3)cc12)c1ccccc1	125.4 µM
COc1ccc(C(=O)Oc2cc(OC)c(OC)c(OC)c2)cc1NC(=O)C(C)Br	3.638 µM
C=C(CC[C@@H](C)[C@H]1CCC2C3=C([C@@H](O)[C@H](OC(C)=O)[C@@]21C)[C@@]1(C)C[C@@H](O)[C@H](OS(=O)(=O)O)C(C)(C)[C@@H]1CC3)C(C)C	<50 µM
CCOC(=O)c1cc(C(=O)c2ccccc2)n2ccc(C(=O)N[C@H](C)c3ccccc3)cc12	216 µM
CC(=O)O[C@H]1[C@H](O)C2=C(CC[C@H]3C(C)(C)[C@@H](OS(=O)(=O)O)[C@H](OC(=O)CCCCCCCCCCCCCCCO)C[C@]23C)C2CC[C@H]([C@H](C)CCC3(C(C)(C)O)CO3)[C@]21C	<50 µM
CCOC(=O)c1cc(C(=O)c2ccc3ccccc3c2)n2ccc(C(=O)c3ccncc3)cc12	137.3 µM
C=C(CC[C@@H](C)[C@H]1CC=C2C3=C([C@@H](O)[C@H](OC(C)=O)[C@@]21C)[C@@]1(C)C[C@@H](O)[C@H](OS(=O)(=O)O)C(C)(C)[C@@H]1CC3)C(C)C	<25 µM
CCOC(=O)c1cc(C(=O)c2ccc3c(c2)OCO3)n2ccc(C(=O)NCc3ccccn3)cc12	139.2 µM
CCOC(=O)c1cc(C(=O)c2ccc(C(F)(F)F)cc2)n2ccc(C(=O)NCc3ccccn3)cc12	349.9 µM
O=C(O)CCNC(=O)CNC(=O)CNC(=O)CNC(=O)c1cc(C(=O)c2ccc3ccccc3c2)n2ccc(C(=O)c3ccccc3)cc12	137.4 µM
COC(=O)CNC(=O)CNC(=O)CNC(=O)CNC(=O)c1cc(C(=O)c2ccc3ccccc3c2)n2ccc(C(=O)c3ccccc3)cc12	137.4 µM
CCOC(=O)c1cc(C(=O)c2ccc3ccccc3c2)n2ccc(C(=O)N[C@@H](CCSC)CC(=O)O)cc12	43.3 µM
CCCCCCCCCCCCCCCCCCCCCCOCC(C)(COCCCCCCCCCCCCCCCCCCCCCC)CO[C@]1(C(=O)O)C[C@H](OS(=O)(=O)O)[C@@H](NC(C)=O)[C@H]([C@H](OS(=O)(=O)O)[C@@H](COS(=O)(=O)O)OS(=O)(=O)O)O1	>100 µg/mL
CCOC(=O)c1cc(C(=O)NCc2ccccn2)n2ccc(C(=O)c3ccco3)cc12	103.2 µM
[N-]=[N+]=NCCOCCOCCOc1cc(C2(C(F)(F)F)N=N2)ccc1C(=O)NCCOCCOCCNC(=O)c1cc(C(=O)c2ccc3ccccc3c2)n2ccc(C(=O)c3ccccc3)cc12	168.5 µM

2 of the rows above, restated:

SMILES	value
CCOC(=O)c1cc(C(=O)c2ccc(C(F)(F)F)cc2)n2ccc(C(=O)NCc3ccccn3)cc12	349.9 µM
CCOC(=O)c1cc(C(=O)c2ccccc2)n2ccc(C(=O)N[C@H](C)c3ccccc3)cc12	216 µM